The record followed here is patent publication US20240270826A1.

Assay [1] deals with SARS-CoV-2 spike protein S on live virus, Beta variant (SARS-CoV-2 (Beta variant)) (UniProt P0DTC2). Description: cell-based or functional assay.
Assay [2] addresses Human SARS-CoV-2 Alpha S (SARS-CoV-2 (Alpha variant)). Description: flow cytometry SVNA: VHH-Fc inhibits S binding to ACE2 on Vero E6 cells. For orientation: In flow cytometry, cells or beads pass a laser one at a time.
For assay [3], the target named is Human SARS-CoV-2 Beta S (SARS-CoV-2 (Beta variant)) (UniProt P0DTC2). The assay is described as above.
The target of assay [4] is Human SARS-CoV-2 Alpha (B.1.1.7) S (SARS-CoV-2 (Alpha, B.1.1.7)). Description: SPR, VHH over immobilised S.
Assay [5] deals with Human SARS-CoV-2 Beta (B.1.351) S (SARS-CoV-2 (Beta, B.1.351)). Description: SPR, VHH over immobilised S. On the technique in general: Surface plasmon resonance follows binding to a sensor surface in real time, without labels.

Consider VHH-72 VHH-Fc (Fc fusion), for which the LVNA IC50 in assay [1] was determined as 9.34 nM. In addition, the half-maximal inhibitory concentration (IC50) in assay [2] stood at 10.6 nM; in assay [3], 5.1 nM.

In assay [4], VHH-72 VHH yielded a Kd of 96 nM, a koff of 0.101 s⁻¹ and an association rate constant (kon) of 1.05e+06 M⁻¹ s⁻¹. Moreover, in assay [5], the Kd amounted to 124 nM, the off-rate (koff) amounted to 0.0992 s⁻¹ and the on-rate (kon) is 801000 M⁻¹ s⁻¹.

The term IC50 denotes the concentration at which inhibition is half-maximal. A low value points to greater potency in that assay. For orientation: Kd means the concentration at which binding is half-saturated. Read a high Kd as weaker binding. As a reminder, the koff is a measure of how fast the partners let go of each other. A low value points to slow dissociation. What is called kon is the second-order rate constant of association. A low value points to slower complex formation.
